Measured values from several laboratories, pooled; numbers as filed in NIAID ChemDB.

Common to all: growth or infection tests; agent: HIV-2; cells: CEM + CEM-SS; endpoint: EC50

Lines come from different laboratories, so protocols vary. ECn is the concentration giving n% inhibition of infection, replication or growth. Blank or dashed fields: not listed here.

smiles,strain,read by,value
O=C1c2ccccc2N(Cc2ccccc2)S(=O)(=O)N1Cc1ccccc1,ROD,p24,>50 µM
CCCc1cc(=O)oc2c3c(c4c(c12)OC(C)(C)CC4)O[C@@H](C)[C@H](C)[C@@H]3O,ROD,XTT,>10 µM
COc1c(Cl)cc(C(=CCCNC(=O)C[C@H]2CC[C@]3(C)C4CC[C@@]5(C)C(CC[C@@H]5CC(=O)NCCC=C(c5cc(Cl)c(OC)c(C(=O)O)c5)c5cc(Cl)c(OC)c(C(=O)O)c5)C4CC[C@H]3C2)c2cc(Cl)c(OC)c(C(=O)O)c2)cc1C(=O)O,ROD,cytopathic effect / MTT,52 µM
CSC1=NS(=O)(=O)N([C@@H]2O[C@H](CO)[C@@H](O)[C@H](O)[C@H]2O)C(=O)N1,ROD,syncytia,>200 µg/mL
CCc1c(C(=O)c2cc(C)cc(C)c2)n(CC2CC=CC2)c(=O)[nH]c1=O,ROD,cytopathic effect / XTT,0.16 µM
CCn1c(C)c(C(=O)OC)c(C(=O)OC)c1Cc1ccccc1,ROD,cytopathic effect / MTT,>10 µM
COc1cc(C)cc2c(-c3c(O)cc(O)c4c3C[C@@H](C)N[C@@H]4C)cc(-c3cc(-c4c(O)cc(O)c5c4C[C@@H](C)N[C@@H]5C)c4cc(C)cc(OC)c4c3O)c(O)c12,CBL-20,cytopathic effect / XTT,2 µM
CC(C)CCC[C@@H](COS(=O)(=O)[O-])[C@H]1CCC2C3CC=C4C[C@H](O)C(OS(=O)(=O)[O-])C[C@]4(C)C3CC[C@@]21C.[Na+].[Na+],CLB20,cytopathic effect / XTT,>100 µM
CC(C)CCC[C@@H](C)[C@H]1CC[C@H]2[C@@H]3CC[C@H]4C[C@@H](CCC=C(c5cc(Cl)c(O)c(C(=O)O)c5)c5cc(Cl)c(O)c(C(=O)O)c5)CC[C@]4(C)[C@H]3CC[C@]12C,NIH-D2,cytopathic effect,5 µM
Cn1cc(NC(=O)Nc2cc(C(=O)Nc3cc(C(=O)Nc4ccc(S(=O)(=O)O)c5cc(S(=O)(=O)O)ccc45)n(C)c3)n(C)c2)cc1C(=O)Nc1cc(C(=O)Nc2ccc(S(=O)(=O)O)c3cc(S(=O)(=O)O)ccc23)n(C)c1,ROD,cytopathic effect / XTT,13.8 µM
CSc1nc(N)cc(=O)n1CCOCP(=O)(O)O,ROD,-,>100 µg/mL
CC(C)=CCOc1cc(NC(=S)c2ccoc2C)ccc1Cl,ROD,cytopathic effect / XTT,>20 µM
Cn1cc(NC(=O)Nc2cc(C(=O)Nc3cc(C(=O)Nc4cc(S(=O)(=O)O)c5cc(S(=O)(=O)O)cc(S(=O)(=O)O)c5c4)n(C)c3)n(C)c2)cc1C(=O)Nc1cc(C(=O)Nc2cc(S(=O)(=O)O)c3cc(S(=O)(=O)O)cc(S(=O)(=O)O)c3c2)n(C)c1,ROD,cytopathic effect / XTT,4.2 µM
CC(C)=CCOc1cc(NC(=S)c2ccsc2C)ccc1Cl,ROD,cytopathic effect / XTT,>20 µM
NS(=O)(=O)c1ccc(NC(=O)c2ccccc2SSc2ccccc2C(=O)Nc2ccc(S(N)(=O)=O)cc2)cc1,-,XTT,1.6 µM
COc1c(Cl)cc(C(=CCCCCN(C(=O)C=C(c2cc(Cl)c(OC)c(C(=O)O)c2)c2cc(Cl)c(OC)c(C(=O)O)c2)[C@H]2CC[C@]3(C)C4CC[C@@]5(C)C(CC[C@@H]5C(C)CCCC(C)C)C4CC[C@H]3C2)c2cc(Cl)c(OC)c(C(=O)O)c2)cc1C(=O)O,ROD,cytopathic effect / MTT,8.2 µM
CSC1=NS(=O)(=O)N([C@@H]2O[C@H](COC(C)=O)[C@@H](OC(C)=O)[C@H]2OC(C)=O)C(=O)N1,ROD,syncytia,>200 µg/mL
O=C1c2ccccc2N(Cc2cccc3ccccc23)S(=O)(=O)N1Cc1ccccc1,ROD,p24,>10 µM
CN1N=C(N)c2cn([C@@H]3O[C@H](COP(=O)(O)O)[C@@H](O)[C@H]3O)c3ncnc1c23,ROD,cytopathic effect / XTT,0.02 µM
CC(C)=CCOc1cc(NC(=S)c2ccsc2C)ccc1Cl,ROD,p24,>2 µM
CC(C)CCC[C@@H](COS(=O)(=O)[O-])[C@H]1CCC2C3CC[C@H]4C[C@H](OS(=O)(=O)[O-])CC[C@]4(C)C3CC[C@@]21C.[Na+].[Na+],CLB20,cytopathic effect / XTT,63 µM
[O-][n+]1onc2ncnc(N3CC[N+]4(CC3)CC[N+]3(CCN(c5ncnc6no[n+]([O-])c56)CC3)CC4)c21,ROD,cytopathic effect / XTT,13.3 µM
C[C@H](CCC(=O)NC(CO)CS(=O)(=O)O)[C@H]1[C@@H](O)[C@H](O)C2C3C[C@@H](O)[C@@]4(O)C[C@@H](O)CC[C@]4(C)C3CC[C@@]21C,CLB20,cytopathic effect / XTT,>100 µM
CCCCCCC(C)[C@H]1CCC2C3CC[C@H]4C[C@@H](CCC=C(c5cc(Cl)c(O)c(C(=O)O)c5)c5cc(Cl)c(O)c(C(=O)O)c5)CC[C@]4(C)C3CC[C@@]21C,ROD,cytopathic effect / MTT,4 µM

The last 2 rows once more:

smiles | strain | read by | value
C[C@H](CCC(=O)NC(CO)CS(=O)(=O)O)[C@H]1[C@@H](O)[C@H](O)C2C3C[C@@H](O)[C@@]4(O)C[C@@H](O)CC[C@]4(C)C3CC[C@@]21C | CLB20 | cytopathic effect / XTT | >100 µM
CCCCCCC(C)[C@H]1CCC2C3CC[C@H]4C[C@@H](CCC=C(c5cc(Cl)c(O)c(C(=O)O)c5)c5cc(Cl)c(O)c(C(=O)O)c5)CC[C@]4(C)C3CC[C@@]21C | ROD | cytopathic effect / MTT | 4 µM